Measured values from several laboratories, pooled; numbers as filed in NIAID ChemDB.

Shared fields: enzyme or target tests; agent: HIV-1; target: Reverse transcriptase

An empty or dashed field is not shown. ICn: concentration for n% inhibition. a–b is a range or a potency band. Conditions beyond the fields shown may differ between rows.

structure	measure	method	strain or isolate	changes	value
CCN1c2ncc(CCOc3ccc(C(=O)Nc4nc(CC(=O)O)cs4)cc3C)cc2C(=O)N(C)c2cccnc21	IC50	nucleotide incorporation / radiometric	IIIB	-	<0.05 µM
CCNc1cccnc1N1CCN(Cc2cc(C)c(SC)c(C)c2)CC1	IC50	nucleotide incorporation	-	-	>100 µM
Cc1cc(C)c2ccccc2c1-n1c(SCC(=O)Nc2ccc(S(N)(=O)=O)cc2Cl)nnc1C(F)F	IC50	nucleotide incorporation / radiometric	-	-	<0.05 µM
CC(C)Nc1cccnc1N1CCN(C(=O)c2cc3cc(N)ccc3[nH]2)CC1	IC50	nucleotide incorporation	-	-	<100 µM
CC(C)(C#Cc1ccc(NC(=O)CSc2nnnn2-c2ccc(C3CC3)cc2Cl)c(Cl)c1)NCc1ccccc1O	IC50	PicoGreen / fluorescence	WT	-	<1 µM
CCN1c2ncc(CCOc3ccc(-c4ccc(CC(=O)O)cc4OC)cc3C)cc2C(=O)N(C)c2cccnc21	IC50	nucleotide incorporation / radiometric	IIIB	-	<0.05 µM
O=C(CSc1nnc(Br)n1-c1c(Cl)cc(C2CCC2)c2ccccc12)Nc1ccc(C(=O)O)cc1Cl	IC50	nucleotide incorporation / radiometric	-	-	<0.05 µM
Cc1nnc2c3c(c(N4CCc5ccccc5C4)nn12)C1CCC3CC1	IC90	RT activity / fluorescence	98US_MSC5016	-	9.75 µM
Cc1cc(S(N)(=O)=O)ccc1NC(=O)COc1ccccc1C(=O)c1cc(Cl)cc(C#N)c1	IC50	fluorescence	NNRTI-resistant	RT-Y188L	0.0238 µM
CCc1ccc(-n2c(Br)nnc2SCC(=O)Nc2ccc(C(=O)NCCO)cc2Cl)c2ccccc12	IC50	nucleotide incorporation / radiometric	-	RT-Y188L	0.05–0.1 µM
CC(C)(C)c1ccc(-n2nnnc2SCC(=O)Nc2ccc(OCCN3CCOCC3)cc2Cl)c(Cl)c1	IC50	PicoGreen / fluorescence	-	RT-K103 Y181C	<1 µM
Cc1ccc2ccccc2c1-n1c(Br)nnc1SC(C)C(=O)Nc1ccc(S(N)(=O)=O)cc1Cl	IC50	nucleotide incorporation / radiometric	-	RT-Y188L	>0.1 µM
COC(=O)NCCCCNc1nc(Cc2ccccc2)c(C)c(=O)[nH]1	Ki	-	-	RT-V179D	>1000 µM
CCN1c2ncc(CCOc3ccc(-c4cc(C)cnc4N)cc3C)cc2C(=O)N(C)c2cccnc21	IC50	nucleotide incorporation / radiometric	IIIB	-	<0.05 µM
Cc1ccc(-n2c(SCC(=O)Nc3ccc(C(=O)O)cc3Cl)nnc2C(F)F)c2c1CCCC2	IC50	nucleotide incorporation / radiometric	-	RT-Y188L	>0.1 µM
C=CCO/N=C/c1cc(NC(=S)c2ccoc2C)ccc1Cl	IC50	nucleotide incorporation / radiometric	-	RT-Y181C	>50 µM
CCN1c2nc(C(F)(F)F)ccc2NC(=O)c2cc(CCOc3cc[n+]([O-])c4ccccc34)cnc21	IC50	nucleotide incorporation / radiometric	-	RT-V106A	0.893 µM
CC(C)=CCN1Cc2cccc3[nH]c(=S)n(c23)C[C@@H]1C	IC50	nucleotide incorporation	-	-	0.23 µM
CCN(CC)CCOc1ccc(-c2ccc(NC(=O)CSc3nnnn3-c3ccc(C(C)(C)C)cc3Cl)c(Cl)c2)cc1	IC50	PicoGreen / fluorescence	WT	-	<1 µM
Cc1occc1C(=S)Nc1ccc(Cl)c(/C=N/OC(C)(C)C)c1	IC50	nucleotide incorporation / radiometric	-	-	13 µM
O=c1cc(Cc2ccccc2)nc(SCCCCO)[nH]1	Ki	-	-	RT-K103N	>1000 µM
CCc1ccc(-n2c(CF)nnc2SCC(=O)Nc2ccc(S(N)(=O)=O)cc2Cl)c2c1CCCC2	IC50	nucleotide incorporation / radiometric	-	RT-Y181C	<0.05 µM
Cc1occc1C(=S)Nc1ccc(Cl)c(C(=O)OCC2CC2)c1	IC50	nucleotide incorporation / radiometric	-	RT-Y188H	>50 µM
Cc1ccc(-n2nnnc2SCC(=O)Nc2ccc(/C=C/C(=O)O)cc2Cl)c(Cl)c1	IC50	PicoGreen / fluorescence	-	RT-K103 Y181C	<1 µM
CCc1ccc(-n2c(Br)nnc2SCC(=O)Nc2ccc(C(=O)NCC(O)CO)cc2Cl)c2ccccc12	IC50	nucleotide incorporation / radiometric	-	RT-Y181C	<0.05 µM
CC(C)(C)c1ccc(-n2nnnc2SCC(=O)Nc2ccc(OCC(=O)Nc3ccc(N4CCOCC4)cc3)cc2Cl)c(Cl)c1	IC50	PicoGreen / fluorescence	WT	-	<1 µM
Cc1cn([C@H]2CC[C@@H](COP(=O)(O)OP(=O)(O)OP(=O)(O)O)O2)c(=O)[nH]c1=O	Ki	nucleotide incorporation / radiometric	-	RT-Q151M	0.075 µM
CCc1ccc(-n2c(SCC(=O)Nc3ccc(C(=O)O)cc3Cl)nnc2C(F)F)c2ccccc12	IC50	nucleotide incorporation / radiometric	-	-	<0.05 µM
CC(C)Nc1cccnc1N(C)CCOC(=O)c1cc2ccccc2[nH]1	IC50	nucleotide incorporation	-	-	<100 µM
CCN1c2ncc(CCOc3ccc(-c4ccc(N)nc4C)cc3C)cc2C(=O)N(C)c2cccnc21	IC50	nucleotide incorporation / radiometric	IIIB	RT-K103N Y181C	<0.05 µM
CC(C)(C#Cc1ccc(NC(=O)CSc2nnnn2-c2ccc(C3CC3)cc2Cl)c(Cl)c1)OCCN1CCC(O)CC1	IC50	PicoGreen / fluorescence	-	RT-K103 Y181C	<1 µM
COc1cccc(-c2nnc3c4ccccc4c(N4CCc5ccccc5C4)nn23)c1	IC50	RT activity / fluorescence	98US_MSC5016	-	>100 µM
CCN1c2ncc(CCOc3ccc(-c4ccc(C)[n+]([O-])c4C)cc3C)cc2C(=O)N(C)c2cccnc21	IC50	nucleotide incorporation / radiometric	IIIB	RT-K103N Y181C	<0.05 µM
CC(C)(C#Cc1ccc(NC(=O)CSc2nnnn2-c2ccc(CC3CC3)cc2Cl)c(Cl)c1)C(=O)O	IC50	PicoGreen / fluorescence	-	RT-K103 Y181C	<1 µM
CCc1ccc(-n2c(Br)nnc2SCC(=O)Nc2ccc(C(=O)NCC(C)O)cc2Cl)c2ccccc12	IC50	nucleotide incorporation / radiometric	-	-	<0.05 µM
O=C(O)Cc1ccc(-c2ccc(NC(=O)CSc3nnnn3-c3cc4ccccc4cc3Cl)c(Cl)c2)cc1	IC50	PicoGreen / fluorescence	WT	-	<1 µM
Cc1cc(C2CC2)c2ccccc2c1-n1c(Br)nnc1SCC(=O)Nc1ccc(S(N)(=O)=O)cc1Cl	IC50	nucleotide incorporation / radiometric	-	-	<0.05 µM
CC(C)(C#Cc1ccc(NC(=O)CSc2nnnn2-c2ccc(C3CC3)cc2Cl)c(Cl)c1)NC(=O)CN1CCNCC1	IC50	PicoGreen / fluorescence	-	RT-K103 Y181C	<1 µM
CCN1c2ncc(CCOc3ccc(-c4nn[nH]n4)cc3C)cc2C(=O)N(C)c2cccnc21	IC50	nucleotide incorporation / radiometric	IIIB	-	<0.05 µM
CC(C)(C)c1ccc(-n2nnnc2SCC(=O)Nc2ccc(C#CCOC(N)=O)cc2Cl)c(Cl)c1	IC50	PicoGreen / fluorescence	-	RT-K103 Y181C	<1 µM
CC(C)Nc1cccnc1N(C)C1CCC(N(C)C(=O)c2cc3ccccc3[nH]2)CC1	IC50	nucleotide incorporation	-	-	>100 µM
O=C(O)CNC(=O)c1ccc(NC(=O)CSc2nnc(Br)n2-c2ccc(C3CC3)c3ccccc23)c(Cl)c1	IC50	nucleotide incorporation / radiometric	-	RT-Y188L	0.05–0.1 µM
C=Cc1cc(N(CC)CC)nc(S(C)(=O)=O)n1	Ki	nucleotide incorporation / radiometric	-	RT-K103N	>400 µM
CCN1c2ncc(CCOc3ccc(NC(=O)Nc4ccc(C(=O)O)cc4)cc3C)cc2C(=O)N(C)c2cccnc21	IC50	nucleotide incorporation / radiometric	IIIB	-	<0.05 µM
NCCCCNc1nc(Cc2ccccc2)cc(=O)[nH]1	Ki	-	-	RT-K103N	>1000 µM
Cc1cc(S(N)(=O)=O)ccc1NC(=O)CSc1nnc(CF)n1-c1ccc(C)c2c1CCCC2	IC50	nucleotide incorporation / radiometric	-	RT-Y188L	>0.1 µM
CN(C)CC(=O)NC(C)(C)C#Cc1ccc(NC(=O)CSc2nnnn2-c2ccc(C3CC3)cc2Cl)c(Cl)c1	IC50	PicoGreen / fluorescence	-	RT-K103 Y181C	<1 µM
Nc1ccn([C@H]2CC[C@@H](COP(=O)(O)OP(=O)(O)OP(=O)(O)O)O2)c(=O)n1	Ki	nucleotide incorporation / radiometric	-	RT-A62V V75I F77L F116Y Q151M	57 µM
CC(C)(C)c1ccc(-n2nnnc2SCC(=O)Nc2ccc(OCC(=O)NCCc3ccc(O)c(O)c3)cc2Cl)c(Cl)c1	IC50	PicoGreen / fluorescence	WT	-	<1 µM
CCN(C(C)=O)c1cccnc1N1CCN(C(=O)c2cc3ccccc3[nH]2)CC1	IC50	nucleotide incorporation	-	-	>100 µM
Cc1cc(C)cc(S(=O)(=O)c2c(C(=O)NCC(N)=O)[nH]c3ccc(Cl)c(F)c23)c1	Ki	RT activity / nucleotide incorporation	-	Y181C	2.6 µM
CCOC(=O)CCNC(=O)c1ccc(NC(=O)CSc2nnc(Br)n2-c2ccc(C3CC3)c3ccccc23)c(Cl)c1	IC50	nucleotide incorporation / radiometric	-	-	<0.05 µM
CCC(C#Cc1ccc(NC(=O)CSc2nnnn2-c2ccc(C3CC3)cc2Cl)c(Cl)c1)(CC)NC(=O)OC(C)(C)C	IC50	PicoGreen / fluorescence	WT	-	<1 µM
CCN1c2ncc(CCOc3ccc(-c4cocn4)cc3C)cc2C(=O)N(C)c2cccnc21	IC50	nucleotide incorporation / radiometric	IIIB	-	<0.05 µM
CCc1ccc(-n2c(Br)nnc2SCC(=O)Nc2ccc(C(=O)N3CCCCC3CO)cc2Cl)c2ccccc12	IC50	nucleotide incorporation / radiometric	-	RT-Y181C	<0.05 µM
CCNc1cccnc1N1CCN(CCCc2cc(C)c(OC)c(C)c2)CC1	IC50	nucleotide incorporation	-	-	>100 µM
C=Cc1cc(N(C)C)nc(S(C)(=O)=O)n1	Ki	nucleotide incorporation / radiometric	-	RT-L100I	0.012 µM
CC(C)(C#Cc1ccc(NC(=O)CSc2nnnn2-c2ccc(C3CC3)cc2Cl)c(Cl)c1)NC(=O)N1CCNCC1	IC50	PicoGreen / fluorescence	WT	-	<1 µM
COc1ccc2c(C3CC3)ccc(-n3c(Br)nnc3SCC(=O)Nc3ccc(S(=O)(=O)O)cc3Cl)c2c1	IC50	nucleotide incorporation / radiometric	-	-	<0.05 µM
CCS(=O)(=O)NC(=O)C(C)(C)C#Cc1ccc(NC(=O)CSc2nnnn2-c2ccc(C3CC3)cc2Cl)c(Cl)c1	IC50	PicoGreen / fluorescence	WT	-	<1 µM
CCc1ccc(-n2c(Br)nnc2SCC(=O)Nc2ccc(C(=O)NCC3CCNCC3)cc2Cl)c2ccccc12	IC50	nucleotide incorporation / radiometric	-	RT-Y188L	>0.1 µM
CC(C)(CO)Oc1ccc(NC(=O)CSc2nnnn2-c2ccc(C3CC3)cc2Cl)c(Cl)c1	IC50	PicoGreen / fluorescence	WT	-	<1 µM
Cc1cc(C)cc(S(=O)(=O)c2c(C(=O)NCCn3cccc3)[nH]c3ccc(Cl)c(F)c23)c1	Ki	RT activity / nucleotide incorporation	-	K103N	0.17 µM
CC(C)(C#Cc1ccc(NC(=O)CSc2nnnn2-c2ccc(C(C)(C)C)cc2Cl)c(Cl)c1)OCC(=O)Nc1ccc(C(=O)O)cc1	IC50	PicoGreen / fluorescence	WT	-	<1 µM
FC(F)(F)c1ccc2c(c1)CN(c1nn3c(C4CC4)nnc3c3ccccc13)CC2	IC50	RT activity / fluorescence	KER2008	-	2.18 µM
CC(C)(C)c1ccc(-n2nnnc2SCC(=O)Nc2ccc(-c3cccc(C(=O)O)c3)cc2Cl)c(Cl)c1	IC50	PicoGreen / fluorescence	-	RT-K103 Y181C	<1 µM
CCc1ccc(-n2c(C)nnc2SCC(=O)Nc2ccc(S(N)(=O)=O)cc2C)c2ccccc12	IC50	nucleotide incorporation / radiometric	-	-	<0.05 µM
CC(C)(C)c1ccc(-n2nnnc2SCC(=O)Nc2ccc(C(=O)NCCN3CCOCC3)cc2Cl)c(Cl)c1	IC50	PicoGreen / fluorescence	-	RT-K103 Y181C	<1 µM
COc1cc2c(cc1OC)CN(c1nn3c(C(F)F)nnc3c3ccccc13)CC2	IC50	RT activity / fluorescence	IIIB	-	2.49 µM
CC(C)(C)c1ccc(-n2nnnc2SCC(=O)Nc2ccc(OCC(=O)NCCC(=O)O)cc2Cl)c(Cl)c1	IC50	PicoGreen / fluorescence	-	RT-K103 Y181C	<1 µM
O=C(CSc1nnc(Br)n1-c1cccc2c(OCC3CC3)cccc12)Nc1ccc(C(=O)O)cc1Cl	IC50	nucleotide incorporation / radiometric	-	RT-Y188L	>0.1 µM